# Test results as given in patent EP2924021A1, “ANTI-HIV COMPOUND AND PREPARATION METHOD AND USE THEREOF” (priority 2012, dated 2014).
# Test system: C8166 cells
# Assay: Cytotoxicity in C8166 cells (CC50)
# Format: cell-based, human
# Conditions: measured twice, average
compound,measurement,value
"COc1ccccc1NC(=O)c1cc(N)ccc1Sc1ccc([N+](=O)[O-])cc1 [compound 24, 5-amino-N-(2-methoxyphenyl)-2-((4-nitrophenyl)thio)benzamide]",CC50,172.21 µg/mL
